In the supplement of paper PMC3578754:

Columns and labels:
Assay in all cases: fold change of IC50 against reference virus; higher = more resistant; Cell-culture drug susceptibility tests of virus bearing the protease of each isolate, gathered from many studies.
indinavir = compound: CC(C)(C)NC(=O)[C@@H]1CN(Cc2cccnc2)CCN1C[C@@H](O)C[C@@H](Cc1ccccc1)C(=O)N[C@H]1c2ccccc2C[C@H]1O [indinavir]
saquinavir = compound: CC(C)(C)NC(=O)[C@@H]1C[C@@H]2CCCC[C@@H]2CN1C[C@@H](O)[C@H](Cc1ccccc1)NC(=O)[C@H](CC(N)=O)NC(=O)c1ccc2ccccc2n1 [saquinavir]
ritonavir = compound: CC(C)c1nc(CN(C)C(=O)N[C@H](C(=O)N[C@@H](Cc2ccccc2)C[C@H](O)[C@H](Cc2ccccc2)NC(=O)OCc2cncs2)C(C)C)cs1 [ritonavir]
atazanavir = compound: COC(=O)N[C@H](C(=O)N[C@@H](Cc1ccccc1)[C@@H](O)CN(Cc1ccc(-c2ccccn2)cc1)NC(=O)[C@@H](NC(=O)OC)C(C)(C)C)C(C)(C)C [atazanavir]
nelfinavir = compound: Cc1c(O)cccc1C(=O)N[C@@H](CSc1ccccc1)[C@H](O)CN1C[C@H]2CCCC[C@H]2C[C@H]1C(=O)NC(C)(C)C [nelfinavir]
lopinavir = compound: Cc1cccc(C)c1OCC(=O)N[C@@H](Cc1ccccc1)[C@@H](O)C[C@H](Cc1ccccc1)NC(=O)[C@H](C(C)C)N1CCCNC1=O [lopinavir]

Test System | fold change of IC50 against reference virus (indinavir) | fold change of IC50 against reference virus (saquinavir) | fold change of IC50 against reference virus (ritonavir) | fold change of IC50 against reference virus (atazanavir) | fold change of IC50 against reference virus (nelfinavir) | fold change of IC50 against reference virus (lopinavir)
HIV-1 isolate 977 (protease changes: V32I M46I L63P A71V V77I V82A, study 138) | 3.5 | 0.4 | 7.6 | 2.6 | 4.1 | 1.4
HIV-1 isolate 717 (protease changes: I62V L63H, study 64) | 0.9 | 0.7 | 0.8 | 1 | 0.9 | 0.8
HIV-1 isolate 137 (protease changes: L10F M46I I54V L63P A71V V77I V82A, study 15) | 37 | 1.4 | 25 | 0.8 | 9.4 | 210
HIV-1 isolate 1402 (protease changes: I15V M36I, study 15) | 0.8 | 0.9 | 1.2 | 0.9 | 0.9 | 0.8
HIV-1 isolate 1103 (protease changes: I13V K20R D30N E35D M36I F53L R57K I62V L63A I66V A71I N88D L90M, study 15) | 2.2 | 40 | 9.2 | 8.4 | 88 | 1.8
HIV-1 isolate 516 (protease changes: L10I V11I I13V I15V K20R V32I L33F E35D M36I N37D K43T M46I F53L I54M R57K D60E L63P K70E A71L T74P V82A I84V L89V L90M, study 15) | 62 | 500 | 300 | 500 | 160 | 120
HIV-1 isolate 554 (protease changes: L10I M46I F53L L63P A71V G73S V82T L90M, study 138) | 17 | 16.7 | 45.3 | 19.3 | 18.4 | 9.9
HIV-1 isolate 62 (protease changes: L23I R57G, study 145) | 0.6 | 0.6 | 0.8 | 0.7 | 1.3 | 0.8
HIV-1 isolate 1442 (protease changes: L10V I13V I15V L19I K20T V32I M36I M46I I47V Q58E L63P I64V I84V Q92K, study 64) | 16 | 6.5 | 38 | 47 | 33 | 76
HIV-1 isolate 1182 (protease changes: I13V E35D L63P A71V V77I I93L, study 15) | 1.2 | 0.8 | 0.9 | 1.2 | 1.5 | 0.7
HIV-1 isolate 272 (protease changes: L10I I13V L19I L24I L33F E34Q M36I K43T M46I F53L I54V K55R L63P A71V V82A I84V T91A, study 15) | 15 | 87 | 500 | 53 | 28 | 130
HIV-1 isolate 622 (protease changes: L10I I13V E35D M36I R41K I50V L63P A71V L90M, study 117) | 2.9 | 8.4 | 20.2 | 2 | 10.1 | 12.4
HIV-1 isolate 1326 (protease changes: I62V H69Q A71T V77I, study 15) | 1 | 0.8 | 0.8 | 1.2 | 1.4 | 1
HIV-1 isolate 1181 (protease changes: I15V Q18H K20I E35D M36I P39S I62V L63P A71V I72L G73S L90M, study 65) | 17 | 20 | 15 | 11 | 26 | 4.4
HIV-1 isolate 663 (protease changes: L10F N37D M46I I54V D60E I62V L63P A71V L76V V77I V82A I93L, study 21) | 14 | 0.7 | 8.2 | 0.6 | 3.9 | 53
HIV-1 isolate 903 (protease changes: L10I I15V L19I I54V R57K L63A I66L A71V V82F L90M I93L, study 15) | 32 | 3 | 58 | 3.8 | 34 | 25
HIV-1 isolate 1054 (protease changes: I15V N37D I93L, study 15) | 0.9 | 0.8 | 0.5 | 0.9 | 0.5 | 0.7
HIV-1 isolate 888 (protease changes: L10I I62V L63P I72L V77I L90M I93L, study 83) | 3.3 | 3.8 | 3.3 | 1.8 | 5.2 | 1.1
HIV-1 isolate 1348 (protease changes: L10I I13V E35D M36I R41K I50V L63P A71V N88S, study 117) | 3.8 | 5.5 | 9.2 | 4.9 | 14.8 | 5.6
HIV-1 isolate 1491 (protease changes: D60E Q61E L63P I64M I72V, study 15) | 0.7 | 0.7 | 0.8 | 0.7 | 0.8 | 0.6

Fold change is the IC50 on the isolate divided by the IC50 on a reference virus; 1 = unchanged, higher = more resistant. Changes are given against the subtype B consensus. No active / inactive call. The values were gathered from many studies (numbered anew) with different assays, which the source does not name. Most viruses are clinical isolates; some are laboratory strains or clones with known resistance changes. Isolates with mixed residues are left out; stretches that were not sequenced show no change. Round top values that many isolates share are read here as limits; other very high values and 0.1 may be limits too. The protease changes I3V and N37S, insertions and deletions cannot be read from the source.
